## Percent effect of library compounds

Mtb glucose medium: 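Whole-cell growth test on Mycobacterium tuberculosis, read after 3 days in glucose-containing 7H9 medium; the read-out is not stated. Compounds at 500 µM. Higher reads as more growth inhibition (inferred: compounds with an IC50 in retests scored well above the rest). Of about 18,000 compounds tested this way, about 1,400 (7.9%) reached 50% or more in at least one test.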
Mtb cholesterol medium: 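Growth of Mycobacterium tuberculosis over 4 days (cholesterol / DPPC medium with tyloxapol); the read-out is not stated. Concentration: 500 µM. Higher reads as more growth inhibition (inferred: compounds with an IC50 in retests scored well above the rest). About 18,000 compounds were tested under these conditions; 5% (about 900) showed 50% or more at least once.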

Values are the deposited “Percent Effect”, in %.
How 0% and 100% were set is not recorded. Most values in the screen are low, and negative values occur.
Many other results are left out here, so strong results are more common than in the screen.
A dash means the value is not listed here; it may have been measured.

With O=C(NCC(CO)Cc1cccnc1)C1CCCC1 (stereo not drawn) the screen gave Mtb cholesterol medium: 10.81%. With CNC(=O)COC(=O)Cc1ccc(Br)cc1 the screen gave Mtb glucose medium: 52.51%. For Cc1ccnc(N(C)CC2(CO)CCOCC2)n1 the result was Mtb glucose medium: 22.88%. With O=C(NC[C@H]1CCCN1)c1ccc2cccc(Cl)c2n1 the screen gave Mtb glucose medium: 32.99%. With O=C(NCc1nc2c(s1)CCCC2)C1CCOC1 (stereo not drawn) the screen gave Mtb glucose medium: 27.52%. Result for COc1cccc(NC(=O)C(C)S(C)(=O)=O)c1 (stereo not drawn) was Mtb glucose medium: 4.333%. With N#CC(c1ccc(F)cc1)N1CCNCC1 (stereo not drawn) the screen gave Mtb glucose medium: 1.057%. For CC(=O)NCC1CCCN(c2ccc(C#N)cn2)C1 (stereo not drawn) the result was Mtb glucose medium: 27.74%.

Result for CCC(O)CN1CCCN(C2CCOCC2)CC1 (stereo not drawn) was Mtb cholesterol medium: 0.1248%. Cc1c[nH]c(CN(C)Cc2ccncc2Cl)n1 gave Mtb glucose medium: -4.979%. Cn1ccc(C2CCCCN2)n1 (stereo not drawn) read Mtb glucose medium: -11.78%. With CN(C)c1cc(C(=O)Nc2nccs2)ccn1 the screen gave Mtb cholesterol medium: -0.3828%. COCCCNC(=O)CN(C)c1ccc2nccn2n1 read Mtb glucose medium: 6.053%. Result for O=C(NCCO)c1cc2c(F)cc(Br)cc2[nH]1 was Mtb glucose medium: 64.99%; Mtb cholesterol medium: 58.72%. Result for CCc1ncc(C(=O)NCCNC(=O)c2ccoc2)s1 was Mtb glucose medium: 26.47%. For COCCN(C)CCCNC(=O)c1cc(Cl)c[nH]1 the result was Mtb cholesterol medium: -3.82%.

With CC(N[C@@H]1CCCC[C@H]1O)c1nccn1C (stereo partly drawn) the screen gave Mtb cholesterol medium: -6.551%. With CCC1Oc2c(Cl)cccc2NC1=O (stereo not drawn) the screen gave Mtb cholesterol medium: 54.82%. Result for CC(C)(NCCCO)c1nccs1 was Mtb cholesterol medium: 5.802%. C=C(C)CCOC(=O)c1ccc(CS(C)(=O)=O)cc1 read Mtb glucose medium: 62.68%; Mtb cholesterol medium: 79.17%. COc1ccc(C(=O)Nc2nonc2NC(C)=O)cc1 read Mtb glucose medium: 51.48%; Mtb cholesterol medium: 52.87%. For NC(=O)NCc1ccc(N2CC=CC2)cc1 the result was Mtb glucose medium: -2.54%. For CCNC(=O)c1ccc(CN)cc1 the result was Mtb cholesterol medium: 0.8182%. With CC(C)[C@@H](CO)Nc1cc([C@H]2C[C@@H](N)C2)ncn1 the screen gave Mtb glucose medium: 19.22%.

Result for Cn1cc(CN(C(=O)c2ccc(N)nc2)C2CC2)cn1 was Mtb glucose medium: -3.426%. For O=C(c1ccncc1)N1CCC2(CCCCO2)CC1 the result was Mtb glucose medium: 23.96%; Mtb cholesterol medium: 8.071%. COC(CNC(=O)N1CCSCC1)c1ccc(F)cc1 (stereo not drawn) gave Mtb glucose medium: 61.85%; Mtb cholesterol medium: 48.84%. Result for COCC(O)CN(C)Cc1c(C)cccc1C (stereo not drawn) was Mtb glucose medium: 15.01%; Mtb cholesterol medium: 21.49%. With NC(=O)CN1CCC(OCc2ccccc2)CC1 the screen gave Mtb glucose medium: 35.29%; Mtb cholesterol medium: 6.381%. CC(N)c1cccc(OCc2ccccn2)c1 (stereo not drawn) read Mtb glucose medium: 39.59%. CCC(C(=O)Nc1cc2c(cc1C)OCO2)N(C)C (stereo not drawn) gave Mtb glucose medium: 69.29%. Result for CCOC(C)(C)C(=O)NC(CC)Cn1ccnc1 (stereo not drawn) was Mtb glucose medium: -5.779%.

For CC(C(N)=O)S(=O)(=O)Cc1ccc(Br)s1 (stereo not drawn) the result was Mtb glucose medium: 26.11%. CC(Sc1nc2ncccn2n1)C(=O)NC1CC1 (stereo not drawn) read Mtb glucose medium: -2.022%. Nc1nc(N2CCC(CO)CC2)cc([C@H]2C[C@@H](N)C2)n1 gave Mtb glucose medium: 2.272%. For CN(C)C(=O)NC1CCNCC1 the result was Mtb glucose medium: -4.62%. For O=S1(=O)C[C@H]2CNC[C@@H](C1)[C@@H]2O the result was Mtb glucose medium: -5.152%. COCCOCCCNC(=O)c1cn2cc(C)nc2s1 gave Mtb glucose medium: 54.44%. CCOC(=O)CNC(=O)NC(C)c1ccccn1 (stereo not drawn) gave Mtb cholesterol medium: 9.503%.

For reference, 3 entries once more:

SMILES	Mtb glucose medium	Mtb cholesterol medium
COc1cccc(NC(=O)C(C)S(C)(=O)=O)c1 (stereo not drawn)	4.333	-
Cc1ccnc(N(C)CC2(CO)CCOCC2)n1	22.88	-
COCCN(C)CCCNC(=O)c1cc(Cl)c[nH]1	-	-3.82

From ChEMBL document CHEMBL3988442, “University of Dundee, Small-Polar-MMV Screening Library” (2021).